Results of unrelated studies side by side (data: NIAID ChemDB).

Shared fields: enzyme or target tests; organism: HIV-1; protein: Protease; endpoint: Ki

Lines come from different laboratories, so protocols vary.

{"SMILES": "COc1ccc(S(=O)(=O)N(C[C@@H](O)[C@H](Cc2ccccc2)NC(=O)O[C@H]2CO[C@H]3OCC[C@H]32)CC(C)(C)CCCNC(=O)N(C)C)cc1", "read by": "fluorescence", "result": "<0.001 µM"}
{"SMILES": "CC(C)CN(C[C@@H](O)[C@H](Cc1ccccc1)NC(=O)O[C@H]1CO[C@H]2OCC[C@H]21)S(=O)(=O)c1ccc2[nH]c(O)c(C=NCc3nc4ccccc4[nH]3)c2c1", "read by": "substrate cleavage", "mutations": "L10 V32 V33 M46 M47 L63 A71 V82 I84 mutant", "result": "<0.001 µM"}
{"SMILES": "CC(C)CN(C[C@@H](O)[C@H](Cc1ccccc1)NC(=O)O[C@H]1CO[C@H]2OCC[C@H]21)S(=O)(=O)c1ccc(-c2cnc([C@H](C)O)o2)cc1", "read by": "substrate cleavage / fluorescence", "result": "0.0000217 µM"}
{"SMILES": "CCOC(=O)NCCCCC(C)(C)CN(C[C@@H](O)[C@H](Cc1ccccc1)NC(=O)O[C@H]1CO[C@H]2OCC[C@H]21)S(=O)(=O)c1cccc(NC)c1", "read by": "fluorescence", "result": "<0.001 µM"}
{"SMILES": "COc1ccc(S(=O)(=O)N(CC(C)C)C[C@@H](O)[C@H](Cc2ccccc2)NC(=O)OCO[C@H]2C[C@H]3OCC4(CC[C@@H](OC)O4)[C@H]3C2)cc1", "read by": "substrate cleavage / fluorescence", "result": "0.00081 µM"}
{"SMILES": "O=C(N[C@@H](Cc1ccccc1)[C@H](O)[C@H](O)[C@@H](Cc1ccccc1)NC(=O)OCc1ccccc1)OCc1ccccc1", "read by": "substrate cleavage", "result": "0.026 µM"}
{"SMILES": "CC(C)CN(C[C@@H](O)[C@H](Cc1cc(F)cc(F)c1)NC(=O)O[C@H]1C2CO[C@H]3OCC1C3C2)S(=O)(=O)c1ccc2nc(NC3CC3)sc2c1", "read by": "substrate cleavage / fluorescence", "result": "0.000014 µM"}
{"SMILES": "CC(C)CN(C[C@@H](O)[C@H](Cc1ccccc1)NC(=O)O[C@H]1CO[C@H]2OCC[C@H]21)S(=O)(=O)c1ccc(C(N)=O)cc1", "read by": "substrate cleavage / fluorescence", "result": "0.0000089 µM"}
{"SMILES": "CC(C)(CCCCNS(C)(=O)=O)CN(C[C@@H](O)[C@H](Cc1ccccc1)NC(=O)O[C@H]1CO[C@H]2OCC[C@H]21)S(=O)(=O)c1cccc2c1OCO2", "read by": "fluorescence", "result": "<0.001 µM"}
{"SMILES": "COc1ccc(S(=O)(=O)N(CC(C)C)C[C@@H](O)[C@H](Cc2ccccc2)NC(=O)OCO[C@H]2C[C@H]3OC[C@@]4(CNC(=O)O4)[C@H]3C2)cc1", "read by": "substrate cleavage / fluorescence", "result": "0.00017 µM"}
{"SMILES": "CNC(=O)NCCC(C)(C)CN(C[C@@H](O)[C@H](Cc1ccccc1)NC(=O)O[C@H]1CO[C@H]2OCC[C@H]21)S(=O)(=O)c1ccc(OC)cc1", "read by": "fluorescence", "result": "<0.001 µM"}
{"SMILES": "CCN(/C=C1\\C(=O)Nc2ccc(S(=O)(=O)N(CC(C)C)C[C@@H](O)[C@H](Cc3ccccc3)NC(=O)O[C@H]3CO[C@H]4OCC[C@H]43)cc21)CC", "read by": "substrate cleavage", "mutations": "L10 L24 M36 I54 L63 A71 V82 I84", "result": "<0.0001 µM"}
{"SMILES": "O=C(N[C@@H](Cc1ccccc1)[C@@H](O)[C@@H](O)[C@@H](Cc1ccccc1)NC(=O)c1ccccc1)c1ccccc1", "read by": "substrate cleavage", "result": "0.042 µM"}
{"SMILES": "CC(C)(CCNC(=S)NC(C)(C)C)CN(C[C@@H](O)[C@H](Cc1ccccc1)NC(=O)O[C@H]1CO[C@H]2OCC[C@H]21)S(=O)(=O)c1ccc2c(c1)OCO2", "read by": "fluorescence", "result": "<0.001 µM"}
{"SMILES": "CC(C)(C)c1cc2c(O)c(c1)Cc1cc(C(C)(C)C)cc3c1OCCOc1ccc4ccccc4c1C=NC(=S)N=Cc1c(ccc4ccccc14)OCCOc1c(cc(C(C)(C)C)cc1Cc1cc(C(C)(C)C)cc(c1O)C3)C2", "read by": "FRET / fluorescence", "result": "28 µM"}
{"SMILES": "CCCNC(=O)OCCC(C)(C)CN(C[C@@H](O)[C@H](Cc1ccccc1)NC(=O)O[C@H]1CO[C@H]2OCC[C@H]21)S(=O)(=O)c1ccc2c(c1)OCO2", "read by": "fluorescence", "result": "<0.001 µM"}
{"SMILES": "CON(C)C(=O)c1ccc(S(=O)(=O)N(CC(C)C)C[C@@H](O)[C@H](Cc2ccccc2)NC(=O)O[C@H]2CO[C@H]3OCC[C@H]32)cc1", "read by": "substrate cleavage / fluorescence", "result": "0.000192 µM"}
{"SMILES": "CC(C)(C)c1cc2c(O)c(c1)Cc1cc(C(C)(C)C)cc3c1OCCOc1ccc4ccccc4c1C=NCCNCCN=Cc1c(ccc4ccccc14)OCCOc1c(cc(C(C)(C)C)cc1Cc1cc(C(C)(C)C)cc(c1O)C3)C2", "read by": "FRET / fluorescence", "result": "22 µM"}